Measured values from several laboratories, pooled; numbers as filed in NIAID ChemDB.

All rows: tests in culture; agent: HIV-1; read by: luminescence; measure: EC50

Neighbouring rows are from separate reports.

smiles | cell line | strain | changes | result
CN(CCc1ccccc1)Cc1ccc2c(c1)C[C@H](CN=C(N)N)[C@H]2NC(=O)C(=O)Nc1ccc(Cl)c(F)c1 | Cf2Th-CD4/CCR5 | YU2 | - | 2.2 µM
COc1cccc2ccc(/C=C/C(=O)Nc3ccc(Cl)cc3)nc12 | TZM-bl | VB59 | - | 124 µM
Cc1ncc(-c2cnc(OCCOc3c(F)cccc3Cl)c(F)c2)c(N2CCC(C)(C)CC2)c1[C@H](OC(C)(C)C)C(=O)O | MT-2 | NL4-3 | - | 0.0011 µM
CN(c1ncc(Cc2cnc(N(C)C3CCN(Cc4ccccc4)CC3)nc2)cn1)C1CCN(Cc2ccccc2)CC1 | SupT1 | NL4-3 | - | 8.63 µM
Cc1ncc(-c2ccc(OCCOc3ccccc3Cl)cn2)c(N2CCC3(CCCC3)CC2)c1[C@H](OC(C)(C)C)C(=O)O | MT-2 | NL4-3 | - | 52.5 µM
COc1cccc2ccc(/C=C/C(=O)Nc3ccccc3F)nc12 | TZM-bl | VB59 | - | 3.35 µM
O=C(NCc1c(F)cc(F)cc1F)c1cn2c(c(O)c1=O)C(=O)N[C@H]1COCC[C@H]12 | MT-4 | IIIB | - | 0.0122 µM
C[C@H]1CC[C@]2(CC(=O)N(CC(C)(C)C)O2)[C@H]2CN1C(=O)c1c(O)c(=O)c(C(=O)NCc3c(F)cc(F)cc3F)cn12 | MT-4 | IIIB | - | 0.0058 µM
Clc1ccc2nc(/C=C/c3ccccc3)cc(Cl)c2c1 | TZM-bl | UG070 | - | 50.3 µM
CC1(C)CC=C(c2cn(-c3nccc(C(=O)NC4CCC(N5CC6CCC(C5)O6)CC4)n3)c3ccc(F)c([C@H](OC(C)(C)C)C(=O)O)c23)CC1 | MT-4 | NL4-3 | N155H | 0.0047 µM
COc1cccc(/C=C/c2cc(Cl)c3cc(Cl)ccc3n2)c1OC | TZM-bl | UG070 | - | 62.46 µM
Cc1ccc(-c2cc(-c3ccccc3)n(-c3cccc(C(F)(F)F)c3)n2)c(=O)[nH]1 | TZM-bl | UG070 | - | 190 µM
Cc1cc(/C=C/C#N)cc(C)c1Nc1ccnc(Nc2ccc(C#N)cc2)n1 | TZM-bl | LAI | - | 0.00042 µM
Clc1ccc2nc(/C=C/c3ccco3)cc(Cl)c2c1 | TZM-bl | UG070 | - | 114 µM
Cc1ncc(-c2ccc(OCC(C)C)cn2)c(N2CCC(C)(c3ccccc3)CC2)c1[C@H](OC(C)(C)C)C(=O)O | MT-2 | NL4-3 | - | 3.1 µM
Cc1ccc(-n2nc(-c3ccc(C)[nH]c3=O)cc2-c2ccccc2)cc1 | TZM-bl | UG070 | - | 102 µM
COc1cc2c(cc1Cc1cccc(Cl)c1F)c(=O)c(C(=O)O)cn2[C@H](CO)C(C)C | TZM-bl | LAI | 3'-PPT mutations | 0.00076 µM
C[C@H]1CC[C@]2(CC(=O)N([C@@H](C)c3ccccc3)O2)[C@H]2CN1C(=O)c1c(O)c(=O)c(C(=O)NCc3c(F)cc(F)cc3F)cn12 | MT-4 | IIIB | - | 0.0008 µM
Cc1ccc(-c2cc(-c3ccccc3)n(-c3ccccc3)n2)c(=O)[nH]1 | TZM-bl | VB59 | - | 16.12 µM
COC(=O)N[C@H](C(=O)N[C@@H](Cc1ccc(C#Cc2ccc(N3CC4CCC(C3)N4C3(C)COC3)nc2)cc1)[C@@H](O)CN(Cc1c(F)cc(-c2ccn(C(F)F)n2)cc1F)NC(=O)[C@@H](NC(=O)OC)C(C)(C)C(F)(F)F)C(C)(C)C(F)(F)F | MT-4 | IIIB | - | 0.00264 µM
Cc1ccc(-c2cc(-c3ccccc3)n(-c3ccccc3F)n2)c(=O)[nH]1 | TZM-bl | UG070 | - | 108 µM
C=C(C)C#Cc1ccc(-c2ccc(Cl)c3c(NS(C)(=O)=O)nn(CC(F)(F)F)c23)c([C@H](Cc2cc(F)cc(F)c2)NC(=O)Cn2nc(C(F)(F)F)c3c2C(F)(F)[C@@H]2C[C@H]32)n1 | - | IIIB | - | 0.021 µM
Cc1ccc(-c2cc(-c3ccccc3)n(-c3ccc(C(C)(C)C)cc3)n2)c(=O)[nH]1 | TZM-bl | UG070 | - | 16.21 µM
Cc1ncc(-c2ccc(OCC(C)C)cn2)c(N2CC3C(C2)C3(C)C)c1[C@H](OC(C)(C)C)C(=O)O | MT-2 | NL4-3 | - | 14.4 µM
Cc1ncc(-c2cnc(OCC3(C)CC3)c(F)c2)c(N2CCC(C)(C)CC2)c1[C@H](OC(C)(C)C)C(=O)O | MT-2 | NL4-3 | - | 0.0078 µM
COC1CN(C)C(=O)c2cc(NC(=O)NC(C)C)ccc2OC[C@H](C)N(Cc2ccc(-c3ccccn3)cc2)C[C@@H]1C | HEK 293 | NL4-3 | - | 2.37 µM
Cc1ncc(-c2ccc(NCCOc3ccc(Cl)cc3F)nc2)c(N2CCC(C)(C)CC2)c1[C@H](OC(C)(C)C)C(=O)O | MT-2 | NL4-3 | - | 0.004 µM
Cc1ncc(-c2ccc(OCCOC(C)C)cn2)c(N2CCC3(CCCC3)CC2)c1[C@H](OC(C)(C)C)C(=O)O | MT-2 | NL4-3 | - | 6.3 µM
COc1cccc2ccc(/C=C/C(=O)Nc3ccccc3)nc12 | TZM-bl | UG070 | - | 12.68 µM
COC(=O)N[C@H](C(=O)N[C@@H](Cc1ccc(C#Cc2ccc(N3CC4CCC(C3)N4C3COC3)nc2)cc1)[C@@H](O)CN(Cc1c(F)cc(-c2ccn(C(F)F)n2)cc1F)NC(=O)[C@@H](NC(=O)OC)C(C)(C)C)C(C)(C)C | MT-4 | IIIB | - | 0.00247 µM
COc1cccc2ccc(-c3nnc(-c4ccc(F)cc4)o3)nc12 | TZM-bl | VB59 | - | >300 µM
Cn1nc(NS(C)(=O)=O)c2c(Cl)ccc(-n3c([C@@H](Cc4cc(F)cc(F)c4)NC(=O)Cn4nc(C(F)F)c5c4C(F)(F)[C@@H]4C[C@H]54)nccc3=O)c21 | MT-2 | NL4-3 | - | 0.0127 µM
Cc1ncc(-c2ccc(OCCc3ccc(F)cc3)cn2)c(N2CCC3(CCCO3)CC2)c1[C@H](OC(C)(C)C)C(=O)O | MT-2 | NL4-3 | - | 11.7 µM
Clc1cc(/C=C/c2ccccc2)nc2ccccc12 | TZM-bl | UG070 | - | 140 µM
Cn1nc(NS(C)(=O)=O)c2c(Cl)ccc(-n3c([C@@H](Cc4cc(F)cc(F)c4)NC(=O)Cn4nc(C(F)(F)F)c5c4C(F)(F)[C@@H]4C[C@H]54)nccc3=O)c21 | MT-2 | NL4-3 | - | 0.07 µM
Cc1ncc(-c2ccc(OCCOC(C)(C)C)cn2)c(N2CCC3(CCCC3)CC2)c1[C@H](OC(C)(C)C)C(=O)O | MT-2 | NL4-3 | - | 5 µM
COC(=O)N[C@H](C(=O)NN(Cc1c(F)cc(-c2ccccn2)cc1Cl)C[C@H](O)[C@H](Cc1ccc(C#Cc2ccc(N3CC4CCC(C3)N4C3COC3)nc2)cc1)NC(=O)[C@@H](NC(=O)OC)C(C)(C)C(F)(F)F)C(C)(C)C | MT-4 | IIIB | - | 0.00489 µM
COc1ccc(-c2nnc(-c3ccc4cccc(OC)c4n3)o2)cc1OC | TZM-bl | VB59 | - | >135 µM
CC1=NO[C@@]2(CC[C@H](C)N3C[C@H]2n2cc(C(=O)NCc4ccc(F)cc4F)c(=O)c(OCOC(=O)CCC(C)C)c2C3=O)C1 | MT-4 | IIIB | - | 0.00214 µM
Cc1ncc(-c2ccc(OCC3CC3)cn2)c(N2CCC(C)(C)CC2)c1[C@H](OC(C)C)C(=O)O | MT-2 | NL4-3 | - | 0.01 µM
Cc1ncc(-c2ccc(OCC(C)C)cn2)c(N2CCC3(CCC3)CC2)c1[C@H](OC(C)(C)C)C(=O)O | MT-2 | NL4-3 | - | 36.1 µM
Cc1cc(Cl)ccc1OCCOc1ccc(-c2cnc(C)c([C@H](OC(C)(C)C)C(=O)O)c2N2CCC(C)(C)CC2)nc1 | MT-2 | NL4-3 | - | 0.0022 µM
COC1(C)CCN(c2c(-c3ccc(OCC(C)C)cn3)cnc(C)c2[C@H](OC(C)(C)C)C(=O)O)CC1 | MT-2 | NL4-3 | - | 14.8 µM
Cc1cc(Cl)c2cc(Cl)ccc2n1 | TZM-bl | UG070 | - | 101 µM
C[C@@H]1CO[C@]2(CC[C@H](C)N3C[C@H]2n2cc(C(=O)NCc4c(F)cc(F)cc4F)c(=O)c(O)c2C3=O)O1 | MT-4 | IIIB | - | 0.0007 µM
Cc1ncc(-c2cnc(SCCc3ccc(F)cc3)c(F)c2)c(N2CCC(C)(C)CC2)c1[C@H](OC(C)(C)C)C(=O)O | MT-2 | NL4-3 | - | 0.0089 µM
COc1cccc2ccc(-c3nnc(-c4ccc(N(C)C)cc4)o3)nc12 | TZM-bl | UG070 | - | 38.83 µM
COC(=O)N[C@H](C(=O)N[C@@H](Cc1ccc(C#Cc2ccc(N3CC4CCC(C3)N4CC(F)F)nc2)cc1)[C@@H](O)CN(Cc1c(F)cc(-c2ccn(C(F)F)n2)cc1F)NC(=O)[C@@H](NC(=O)OC)C(C)(C)C(F)(F)F)C(C)(C)C(F)(F)F | MT-4 | IIIB | - | 0.03703 µM
Cc1cc(F)ccc1OCCN(C)c1ccc(-c2cnc(C)c([C@H](OC(C)(C)C)C(=O)O)c2N2CCC(C)(C)CC2)nc1 | MT-2 | NL4-3 | - | 0.0013 µM
Cc1ccc(N=Cc2cc3ccccc3nc2Nc2ccc(C)cc2)cc1 | TZM-bl | VB59 | - | >130 µM
CC1=NO[C@]2(CC[C@H](C)N3C[C@H]2n2cc(C(=O)NCc4ccc(F)cc4F)c(=O)c(O)c2C3=O)C1=O | MT-4 | IIIB | - | 0.1 µM
Cc1cccc(Cl)c1OCCNc1ccc(-c2cnc(C)c([C@H](OC(C)(C)C)C(=O)O)c2N2CCC(C)(C)CC2)cn1 | MT-2 | NL4-3 | - | 0.005 µM
COc1ccc(N=Cc2cc3ccccc3nc2Nc2ccc(OC)cc2)cc1 | TZM-bl | VB59 | - | >130 µM

For reference, 5 entries again:

smiles | cell line | strain | changes | result
Cc1ccc(-c2cc(-c3ccccc3)n(-c3cccc(C(F)(F)F)c3)n2)c(=O)[nH]1 | TZM-bl | UG070 | - | 190 µM
C=C(C)C#Cc1ccc(-c2ccc(Cl)c3c(NS(C)(=O)=O)nn(CC(F)(F)F)c23)c([C@H](Cc2cc(F)cc(F)c2)NC(=O)Cn2nc(C(F)(F)F)c3c2C(F)(F)[C@@H]2C[C@H]32)n1 | - | IIIB | - | 0.021 µM
CC1=NO[C@]2(CC[C@H](C)N3C[C@H]2n2cc(C(=O)NCc4ccc(F)cc4F)c(=O)c(O)c2C3=O)C1=O | MT-4 | IIIB | - | 0.1 µM
Cc1ncc(-c2ccc(OCCc3ccc(F)cc3)cn2)c(N2CCC3(CCCO3)CC2)c1[C@H](OC(C)(C)C)C(=O)O | MT-2 | NL4-3 | - | 11.7 µM
COc1cccc2ccc(/C=C/C(=O)Nc3ccccc3F)nc12 | TZM-bl | VB59 | - | 3.35 µM

Blank or dashed fields: not listed here. ECn: concentration that inhibits the pathogen or its effect by n%.